Measurements taken from paper PMC8953592, “Mechanism of Action and Therapeutic Potential of the β-Hairpin Antimicrobial Peptide Capitellacin from the Marine Polychaeta Capitella teleta” (Marine Drugs, 2022).

How the values were obtained:
Assay in all cases: MIC, two-fold serial dilutions
Conditions in all cases: MH medium with 0.9% NaCl, 0.1% BSA, 5 × 10^5 CFU/mL, 37 °C, 24 h
[1] = system: P. aeruginosa PAO1
[2] = system: E. cloacae CI 4172
[3] = system: E. coli CI 3600
[4] = system: K. pneumonia ATCC 700603
[5] = system: E. coli ML-35p
[6] = system: E. coli CI 214
[7] = system: E. coli ATTC 25922
[8] = system: Staphylococcus aureus 209P
[9] = system: A. baumanii CI 2675
[10] = system: E. coli BW25113
[11] = system: E. coli MDR CI 1057

## CC[C@H](C)[C@@H]1NC(=O)[C@@H](NC(=O)[C@@H](NC(=O)[C@H](CCCNC(=N)N)NC(=O)[C@@H]2CCCN2C(=O)[C@@H](N)CO)C(C)C)CSSC[C@@H](C(=O)N[C@@H](Cc2c[nH]c3ccccc23)C(=O)O)NC(=O)[C@H](CCCNC(=N)N)NC(=O)[C@H](CCCNC(=N)N)NC(=O)[C@H](Cc2ccc(O)cc2)NC(=O)[C@@H]2CSSC[C@H](NC(=O)[C@H](C(C)C)NC(=O)[C@H](CCCNC(=N)N)NC1=O)C(=O)N[C@@H](CCCNC(=N)N)C(=O)N[C@@H](CC(N)=O)C(=O)NCC(=O)N[C@@H](C(C)C)C(=O)N2 [CT3]
[1]
  Minimum Inhibitory Concentration: 2 µM
[2]
  Minimum Inhibitory Concentration: 8 µM
[3]
  Minimum Inhibitory Concentration: 0.5 µM
[4]
  Minimum Inhibitory Concentration: 4 µM
[5]
  Minimum Inhibitory Concentration: 0.5 µM
[6]
  Minimum Inhibitory Concentration: 1 µM
[7]
  Minimum Inhibitory Concentration: 0.5 µM
[8]
  Minimum Inhibitory Concentration: 8 µM
[9]
  Minimum Inhibitory Concentration: 0.25 µM

## CC(C)[C@@H]1NC(=O)CNC(=O)[C@H](CC(N)=O)NC(=O)[C@H](CCCNC(=N)N)NC(=O)[C@@H]2CSSC[C@H](NC1=O)C(=O)N[C@@H](Cc1ccc(O)cc1)C(=O)N[C@@H](CCCNC(=N)N)C(=O)N[C@@H](CCCNC(=N)N)C(=O)N[C@H](C(=O)N[C@@H](Cc1c[nH]c3ccccc13)C(=O)O)CSSC[C@H](NC(=O)[C@@H](NC(=O)[C@@H](N)CCCNC(=N)N)C(C)C)C(=O)N[C@@H](Cc1ccccc1)C(=O)N[C@@H](CCCNC(=N)N)C(=O)N[C@@H](C(C)C)C(=O)N2 [CT6]
[1]
  Minimum Inhibitory Concentration: 2 µM
[2]
  Minimum Inhibitory Concentration: 2 µM
[3]
  Minimum Inhibitory Concentration: 0.25 µM
[4]
  Minimum Inhibitory Concentration: 2 µM
[5]
  Minimum Inhibitory Concentration: 0.25 µM
[6]
  Minimum Inhibitory Concentration: 0.25 µM
[7]
  Minimum Inhibitory Concentration: 0.25 µM
[8]
  Minimum Inhibitory Concentration: 4 µM
[9]
  Minimum Inhibitory Concentration: 0.25 µM

## CC[C@H](C)[C@@H]1NC(=O)[C@@H](NC(=O)[C@@H](NC(=O)[C@@H](N)CCCNC(=N)N)C(C)C)CSSC[C@@H](C(=O)N[C@@H](Cc2c[nH]c3ccccc23)C(=O)O)NC(=O)[C@H](CCCNC(=N)N)NC(=O)[C@H](CCCNC(=N)N)NC(=O)[C@H](Cc2ccc(O)cc2)NC(=O)[C@@H]2CSSC[C@H](NC(=O)[C@H](C(C)C)NC(=O)[C@H](CCCNC(=N)N)NC1=O)C(=O)N[C@@H](CCCNC(=N)N)C(=O)N[C@@H](CC(N)=O)C(=O)NCC(=O)N[C@@H](C(C)C)C(=O)N2 [CT4]
[1]
  Minimum Inhibitory Concentration: 1 µM
[2]
  Minimum Inhibitory Concentration: 4 µM
[3]
  Minimum Inhibitory Concentration: 0.25 µM
[4]
  Minimum Inhibitory Concentration: 2 µM
[5]
  Minimum Inhibitory Concentration: 0.25 µM
[6]
  Minimum Inhibitory Concentration: 0.5 µM
[7]
  Minimum Inhibitory Concentration: 0.5 µM
[8]
  Minimum Inhibitory Concentration: 4 µM
[9]
  Minimum Inhibitory Concentration: 0.125 µM

## CC[C@H](C)[C@@H]1NC(=O)[C@@H](NC(=O)[C@@H](NC(=O)[C@H](CCCNC(=N)N)NC(=O)[C@@H]2CCCN2C(=O)[C@@H](N)CO)C(C)C)CSSC[C@@H](C(=O)N[C@@H](Cc2c[nH]c3ccccc23)C(=O)NCC(=O)O)NC(=O)[C@H](CCCNC(=N)N)NC(=O)[C@H](CCCNC(=N)N)NC(=O)[C@H](Cc2ccc(O)cc2)NC(=O)[C@@H]2CSSC[C@H](NC(=O)[C@H](C(C)C)NC(=O)[C@H](CCCNC(=N)N)NC1=O)C(=O)N[C@@H](CCCNC(=N)N)C(=O)N[C@@H](CC(N)=O)C(=O)NCC(=O)N[C@@H](C(C)C)C(=O)N2 [Cap, capitellacin]
[1]
  Minimum Inhibitory Concentration: 2 µM
[2]
  Minimum Inhibitory Concentration: 4 µM
[3]
  Minimum Inhibitory Concentration: 0.5 µM
[4]
  Minimum Inhibitory Concentration: 4 µM
[5]
  Minimum Inhibitory Concentration: 0.5 µM
[6]
  Minimum Inhibitory Concentration: 1 µM
[10]
  Minimum Inhibitory Concentration: 0.5 µM
[7]
  Minimum Inhibitory Concentration: 0.5 µM
[8]
  Minimum Inhibitory Concentration: 8 µM
[9]
  Minimum Inhibitory Concentration: 0.25 µM
[11]
  Minimum Inhibitory Concentration: 0.5 µM

## CC[C@H](C)[C@@H]1NC(=O)[C@@H](NC(=O)[C@@H](NC(=O)[C@H](CCCNC(=N)N)NC(=O)[C@@H]2CCCN2C(=O)[C@H](CO)NC(=O)[C@@H](N)CCCNC(=N)N)C(C)C)CSSC[C@@H](C(=O)N[C@@H](Cc2c[nH]c3ccccc23)C(=O)NCC(=O)O)NC(=O)[C@H](CCCNC(=N)N)NC(=O)[C@H](CCCNC(=N)N)NC(=O)[C@H](Cc2ccc(O)cc2)NC(=O)[C@@H]2CSSC[C@H](NC(=O)[C@H](C(C)C)NC(=O)[C@H](CCCNC(=N)N)NC1=O)C(=O)N[C@@H](CCCNC(=N)N)C(=O)N[C@@H](CC(N)=O)C(=O)NCC(=O)N[C@@H](C(C)C)C(=O)N2 [CT2]
[1]
  Minimum Inhibitory Concentration: 1 µM
[2]
  Minimum Inhibitory Concentration: 2 µM
[3]
  Minimum Inhibitory Concentration: 0.25 µM
[4]
  Minimum Inhibitory Concentration: 2 µM
[5]
  Minimum Inhibitory Concentration: 0.25 µM
[6]
  Minimum Inhibitory Concentration: 0.25 µM
[7]
  Minimum Inhibitory Concentration: 0.25 µM
[8]
  Minimum Inhibitory Concentration: 4 µM
[9]
  Minimum Inhibitory Concentration: 0.125 µM
